Data from PMC7265302 (Nature Communications, 2020).

Key:
MvcA (C83A) = MvcA (C83A) (Legionella pneumophila, UniProt Q5ZTL3 1-426, C83A); conditions: both partners purified
MavC (aa 1–385) = MavC (aa 1–385) (Legionella pneumophila, UniProt Q5ZTL4 1-385); assay: crystal structure; conditions: both partners purified

B1: Lpg2149, wild type (natural protein)
chain: MMSREKAAGTFFKDYQKKNVMRLLQDSLEKIINEWLKTDDESHTKLKSLQELSEMDINATSFAEHSPLPDFVTRLWLDPHKALDAMDKNISKNEIRKLIKETAREIELVFTHQKAPDYS
Does B1 bind (MvcA (C83A))?
Result: binds

B2: Lpg2149 (aa 9–111) (domain or fragment)
chain: GTFFKDYQKKNVMRLLQDSLEKIINEWLKTDDESHTKLKSLQELSEMDINATSFAEHSPLPDFVTRLWLDPHKALDAMDKNISKNEIRKLIKETAREIELVFT
Does B2 bind (MavC (aa 1–385))?
Result: binds
